Data on one compound can be found in patent US6800101B2, “Deactivatable biocides for hydrocarbonaceous products” (priority 2001, dated 2004).

This series deals with alkane degrading culture. In words: Test for rapidly biodegradable hydrocarbonaceous products (visual growth after inoculation). The format is cell-based. The following applies: 90 ml media, 10 ml product, 10 μl inoculum.

On to `CCCCCCCCCCCCCCCC` [n-C16], for which the growth entry was “no growth” (at 2 days) and “growth” (at 6 days).
